# Reference: PMC8206078, “Identification of pyrogallol as a warhead in design of covalent inhibitors for the SARS-CoV-2 3CL protease” (Nature Communications, 2021)
# Target: SARS-CoV-2 3CLpro (Severe acute respiratory syndrome coronavirus 2, UniProt P0DTD1)
# Assay: biochemical
# Conditions: read-out: Inhibition (%) @10 μM
smiles,measurement,value
O=c1c(O[C@@H]2O[C@H](CO)[C@H](O)[C@H](O)[C@H]2O)c(-c2ccc(O)c(O)c2)oc2cc(O)cc(O)c12 [Hyperoside],inhibition at 10 µM,5.2%
